The subject of assay [1] is Influenza A virus (A/Moscow/10/1999(H3N2)). Put plainly: Binding affinity to recombinant Influenza A virus (A/Moscow/10/99(H3N2)) Neuraminidase N2 expressed in baculovirus infected insect cells assessed as association rate constant measured up to 400 sec by surface plasmon resonance analysis. (In general: Surface plasmon resonance follows binding to a sensor surface in real time, without labels.)

Assay [2] has the same test system. As to the kind of experiment: Binding affinity to recombinant Influenza A virus (A/Moscow/10/99(H3N2)) Neuraminidase N2 expressed in baculovirus infected insect cells assessed as dissociation rate constant measured up to 400 sec by surface plasmon resonance analysis.

SMILES strings stand for the structures.

With `CC(=O)N[C@H]1[C@H]([C@H](OC(=O)NCCOCCOCCOCCOCCOCCOCCOCCOCCOCCOCCOCCOCc2cn(CC(Cn3cc(COCCOCCOCCOCCOCCOCCOCCOCCOCCOCCOCCOCCNC(=O)O[C@@H]([C@@H]4OC(C(=O)O)=C[C@H](NC(=N)N)[C@H]4NC(C)=O)[C@H](O)CO)nn3)(Cn3cc(COCCOCCOCCOCCOCCOCCOCCOCCOCCOCCOCCOCCNC(=O)O[C@@H]([C@@H]4OC(C(=O)O)=C[C@H](NC(=N)N)[C@H]4NC(C)=O)[C@H](O)CO)nn3)Cn3cc(COCCOCCOCCOCCOCCOCCOCCOCCOCCOCCOCCOCCNC(=O)O[C@@H]([C@@H]4OC(C(=O)O)=C[C@H](NC(=N)N)[C@H]4NC(C)=O)[C@H](O)CO)nn3)nn2)[C@H](O)CO)OC(C(=O)O)=C[C@@H]1NC(=N)N` (stereo partly specified), the K in assay [1] was found to be 9.16 ×10⁴ /M/s; in assay [2], 4.2 ×10⁻⁷ /s.
The corresponding values for `CC(=O)N[C@H]1[C@H]([C@H](OC(=O)NCCOCCOCCOCc2cn(CC(Cn3cc(COCCOCCOCCNC(=O)O[C@@H]([C@@H]4OC(C(=O)O)=C[C@H](NC(=N)N)[C@H]4NC(C)=O)[C@H](O)CO)nn3)(Cn3cc(COCCOCCOCCNC(=O)O[C@@H]([C@@H]4OC(C(=O)O)=C[C@H](NC(=N)N)[C@H]4NC(C)=O)[C@H](O)CO)nn3)Cn3cc(COCCOCCOCCNC(=O)O[C@@H]([C@@H]4OC(C(=O)O)=C[C@H](NC(=N)N)[C@H]4NC(C)=O)[C@H](O)CO)nn3)nn2)[C@H](O)CO)OC(C(=O)O)=C[C@@H]1NC(=N)N` (stereo partly specified) are 14.7 ×10⁴ /M/s and 3.2 ×10⁻⁴ /s.
With `CC(=O)N[C@@H]1[C@H]([C@@H](OC(=O)NCCOCCOCCOCCOCCOCCOCc2cn(CC(Cn3cc(COCCOCCOCCOCCOCCOCCNC(=O)O[C@@H]([C@@H]4OC(C(=O)O)=C[C@H](NC(=N)N)[C@H]4NC(C)=O)[C@H](O)CO)nn3)(Cn3cc(COCCOCCOCCOCCOCCOCCNC(=O)O[C@@H]([C@@H]4OC(C(=O)O)=C[C@H](NC(=N)N)[C@H]4NC(C)=O)[C@H](O)CO)nn3)Cn3cc(COCCOCCOCCOCCOCCOCCNC(=O)O[C@@H]([C@@H]4OC(C(=O)O)=C[C@H](NC(=N)N)[C@H]4NC(C)=O)[C@H](O)CO)nn3)nn2)[C@H](O)CO)OC(C(=O)O)=C[C@@H]1NC(=N)N` (stereo partly specified), the K in assay [1] came out at 8.36 ×10⁴ /M/s; in assay [2], 1.3 ×10⁻⁴ /s.

The record behind these values is ChEMBL document CHEMBL4425127 (J Med Chem, 2016).
